Anti-infective test results gathered from many reports (values: NIAID ChemDB through PubChem).

Shared fields: tests in culture; agent: HIV-1; method: p24; read-out: EC50

Conditions beyond the fields shown may differ between rows. ECn: concentration that inhibits the pathogen or its effect by n%.

CC(C)CN(C[C@@H](O)[C@H](Cc1ccccc1)NC(=O)OCc1cccnc1)S(=O)(=O)c1ccc2nonc2c1 ; strain: IIIB ; cells: CEM ; value: <10 µM
CCn1cc(C(=O)O)c(=O)c2cc(F)c(N3CCN(c4ccccc4OC)CC3)c(OC(F)F)c21 ; cells: OM-10.1 ; value: 0.05 µM
Nc1ccn([C@@H]2CC[C@H](CO)O2)c(=O)n1 ; strain: RF ; cells: MT-4 ; value: 5 µM
Cc1cnc(CN2CCn3c(nc(C(=O)NCc4ccc(F)cc4)c(O)c3=O)C2(C)C)o1 ; cells: MT-4 ; value: <1 µM
O=C1c2c(O)c(=O)n(C3CCCCC3N3CCOCC3)c(=O)n2CCN1Cc1ccc(F)cc1 ; cells: MT-4 ; value: <10 µM
COc1ccc(-c2c(C)nc3c(N4CCN(C(=O)OC(C)(C)C)CC4)cc(C)nn23)cc1OC ; cells: H9 ; value: 2 µM
Cc1cc(C)cc(S(=O)(=O)c2c(C(=O)NCCO)[nH]c3ccc(Cl)cc23)c1 ; mutations: RT-K103R V179D P225H ; strain: EFV-resistant (RT K103R V179D P225H) ; cells: C8166 ; value: <0.1 µM
CC(=O)N1CCc2nc(C(=O)NCc3ccc(F)cc3)c(O)c(=O)n2CC1 ; cells: MT-4 ; value: <50 µM
CN1CCN(CCC2CN(Cc3ccc(F)cc3)C(=O)c3c(O)c(=O)n(C4CC4)c(=S)n32)CC1 ; cells: MT-4 ; value: <10 µM
CC(C)CN(C[C@@H](O)[C@H](Cc1ccccc1)NC(=O)O[C@@H]1CCOC1)S(=O)(=O)c1ccoc1 ; strain: IIIB ; cells: CEM ; value: <1 µM
CCOC(=O)c1nnsc1Nc1ccccc1Nc1snnc1C(=O)OCC ; strain: NNRTI-R K103N Y181C ; cells: C8166 ; value: 4.5 µM
CC1(C)c2nc(C(=O)NCc3ccc(F)cc3)c(O)c(=O)n2CCN1CC(=O)N1CCCC1 ; cells: MT-4 ; value: <1 µM
CC(=O)N[C@@H]1CCN(c2cc(C)nn3c(-c4nccs4)c(C)nc23)C1 ; cells: H9 ; value: 1 µM
CC(C)n1c(=O)c(O)c2n(c1=O)C(CCN(C)S(C)(=O)=O)CN(Cc1ccc(F)cc1)C2=O ; cells: MT-4 ; value: <10 µM
COc1ccc(-c2c(C)nc3c(N4CC[C@@H](NC(C)=O)C4)cc(C)nn23)cc1 ; cells: H9 ; value: 1 µM
Clc1cc(CN2CCCNCCNCCCNCC2)cc(Cl)n1 ; strain: BAL R5 ; cells: HOS-CD4-CCR5 + HOS ; value: 8.3 µM
C=CCOC(=O)N[C@@H](Cc1ccccc1)[C@H](O)CN(CC1CCCC1)S(=O)(=O)c1ccc(OC)cc1 ; strain: IIIB ; cells: CEM ; value: <1 µM
CCO[C@@H]1Cc2cc(C(F)(F)F)ccc2C1N1CCN(C2(C)CCN(C(=O)c3c(C)ncnc3C)CC2)C[C@@H]1C ; strain: WPS-2 ; cells: PBMC ; value: 0.0012 µM
Cn1nnc(CN2CCn3c(nc(C(=O)NCc4ccc(F)cc4)c(O)c3=O)C2(C)C)n1 ; cells: MT-4 ; value: <1 µM
O=C(c1ccccc1)N(CCc1ccccc1)C[C@H](O)CN(CC1CCCC1)S(=O)(=O)c1cc(C(F)(F)F)cc2[nH]cnc12 ; strain: IIIB ; cells: CEM ; value: <1 µM
COc1ccc(-c2c(C)nc3c(N4CC[C@@H](n5cc(-c6ccccc6)nn5)C4)cc(C)nn23)cc1OC ; cells: H9 ; value: 0.3 µM
Nc1nc(NC2CC2)c2ncn([C@H]3C=C[C@@H](CO)C3)c2n1 ; mutations: RT-T69SSS L210W T215Y ; strain: XM-T69SSS ; cells: PBMC ; value: <34 µM
COc1ccc(-c2c(C)nc3c(N4CC[C@H](NC(C)=O)C4)cc(C)nn23)cc1OC ; cells: H9 ; value: 2 µM
C=C1CN(S(=O)(=O)c2ccc(C)cc2)CCCN(CC2CCCCC2)CCCN(S(=O)(=O)c2ccc(C)cc2)C1 ; strain: BaL ; cells: PBMC ; value: 1.12 µM
O=C(N[C@@H](Cc1ccccc1)[C@H](O)CN(CC1CCCC1)S(=O)(=O)c1ccc([N+](=O)[O-])cc1)O[C@@H]1CCOC1 ; strain: IIIB ; cells: CEM ; value: <1 µM
Cc1cnc(NC(=O)NC(C)(C)C)n1CC(O)CN(CC(C)C)S(=O)(=O)c1ccccc1 ; strain: IIIB ; cells: CEM ; value: <1 µM
Cc1nnc(C(=O)N(C)C2CN(C)CCn3c2nc(C(=O)NCc2ccc(F)cc2)c(O)c3=O)o1 ; cells: MT-4 ; value: <1 µM
O=C1c2c(O)c(=O)n(C3CCSCC3)c(=O)n2CCN1Cc1ccc(F)cc1 ; cells: MT-4 ; value: <10 µM
COc1ccc(-c2c(C)nc3c(N4CC[C@@H](NC(C)=O)C4)cc(Cl)nn23)cc1 ; cells: H9 ; value: >100 µM
CC(=O)Nc1ccc(S(=O)(=O)N(CC2CCCC2)C[C@@H](O)[C@H](Cc2ccccc2)NC(=O)OCc2cccnc2)cc1 ; strain: IIIB ; cells: CEM ; value: <1 µM
O=C(O)C(O)c1ccccc1 ; strain: BaL ; cells: U87 (CD4+ CCR5+) + U87 ; value: 1 µg/mL
COc1ccc(S(=O)(=O)N(CC(C)C)C[C@@H](O)CCN(CC2CCCC2)S(=O)(=O)C2CCS(=O)(=O)CC2)cc1 ; strain: IIIB ; cells: CEM ; value: <1 µM
Cn1c(=O)c(O)c2n(c1=O)CCN(Cc1ccc(F)cc1)C2=O ; cells: MT-4 ; value: <10 µM
COc1ccc(S(=O)(=O)N(CC(C)C)C[C@@H](O)[C@H](Cc2ccccc2)NC(=O)OCc2ccncc2)cc1 ; strain: IIIB ; cells: CEM ; value: <1 µM
CSc1cc(N)nc(S[C@@H](C)c2cc3c(C)coc3cn2)n1 ; strain: IIIB ; cells: MT-4 ; value: <0.004 µM
O=C(NCc1ccc(F)cc1)c1nc2n(c(=O)c1O)CCNC2 ; cells: MT-4 ; value: <50 µM
OCCC#Cc1nc(-c2ccc(F)cc2)c(-c2ccncc2)n1CCCc1ccccc1 ; strain: AZT-resistant A012 Clinical isolate ; cells: PBMC ; value: <1 µM
O=C(O)c1cn(-c2ccc(Cn3cncn3)cc2)c2c(OC(F)F)c(N3CC=C(c4ccccc4)CC3)c(F)cc2c1=O ; strain: IIIB ; cells: PBMC ; value: 0.0038 µM
COc1ccc(S(=O)(=O)N(CC(C)C)C[C@@H](O)CCN(CC2CCCC2)S(=O)(=O)C(C)(C)C)cc1 ; strain: IIIB ; cells: CEM ; value: <1 µM
CC(C)=CCOc1cc(NC(=S)c2ccoc2C)ccc1Cl ; mutations: RT-V106I ; strain: NL4-3 ; cells: CEM + CEM-SS ; value: 0.1 µM
Nc1nc(=O)n([C@H]2C=C[C@@H](CO)O2)cc1F ; mutations: RT-K65R L74V M184V Y115F ; strain: XM-ABC-resistant ; cells: MT-4 ; value: <14 µM
O=C(N[C@@H](Cc1ccccc1)C(=O)C(F)(F)C(Cc1ccccc1)NS(=O)(=O)c1ccccc1)OC1COCOC1 ; strain: IIIB ; cells: CEM ; value: <1 µM
CC(C)CN(C[C@@H](O)[C@H](Cc1ccccc1)NC(=O)OC1CCOC1)S(=O)(=O)c1ccc(Cl)cc1 ; strain: IIIB ; cells: CEM ; value: <1 µM
O=C(c1ccccc1)N(CCc1ccccc1)C[C@H](O)CN(CC1CCCC1)S(=O)(=O)CC1CCOC1 ; strain: IIIB ; cells: CEM ; value: <1 µM
CC(=O)Nc1ccc(S(=O)(=O)N(CC(C)C)C[C@@H](O)[C@H](Cc2ccccc2)NC(=O)[C@H](CC(N)=O)NC(=O)c2ccc3ccccc3n2)cc1 ; strain: IIIB ; cells: CEM ; value: <1 µM
COc1ccc(-n2ncc3c(N4CC[C@@H](NC(C)=O)C4)nc(C)nc32)cc1OC ; cells: H9 ; value: >100 µM